PubChem BioAssay AID504761 – Drosophila RNAi Screening Center, 2011
The screen tested about 22,000 reagents; below is an unselected part of those that have a named target and a result. In the full data, 116 (0.52%) got an active call. 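Calls depend on retest data that are not deposited; infection was ranked per plate without normalising between plates; the unit of the infection score is not given.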 Raw values are not corrected between plates. Unmarked entries are inactive. Names joined by + are all predicted targets of the reagent. Further read-outs or replicates are left out here. Not stated in the record: the amount of reagent, the time to read-out.

Aim: 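Genome-wide fly cell screen for genes dengue virus requires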 (primary screen)
Cells: D.Mel-2 cells from Drosophila
Knock-down reagent: long dsRNA against Drosophila genes
Conditions: infection with dengue virus type 2; dose and infection time not stated
Detection: 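Per well on two replicate plates, imaging gave the percent of cells positive for viral envelope protein, ranked by infection, and a nuclear count of cells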
Scale: infection score: higher = more virus-infected cells; cell count: higher = more cells in the well
Call rule: 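Low infection ranks in the two replicates (chance level up to 0.065) followed by a retest with a 1.5-fold or larger significant decrease, p below 0.05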
Calls: active = confirmed: knock-down lowers infection; inactive = not picked or not confirmed

gene knocked down | amplicon | infection score, replicate 1 | infection score, replicate 2 | cell count, replicate 1
RhoGAP16F | DRSC20025 | 1.4 | 0.92 | 7052
ms(3)76Cc | DRSC11071 | 0.95 | 6.88 | 6444
ms(3)76Cc | DRSC21630 | 5.01 | 5.97 | 5954
CG14708 | DRSC14930 | 11.6 | 7 | 5414
CG14708 | DRSC25906 | 11.5 | 1.29 | 6495
CG12490 + CG30265 | DRSC25712 | 5.63 | 5.89 | 6373
CG18814 | DRSC10347 | 3.04 | 2.92 | 5990
prom | DRSC04684 | 3.06 | 4.52 | 6037
prom | DRSC21463 | 1.02 | 1.63 | 6154
prom | DRSC22088 | 6.39 | 0.52 | 6765
prom | DRSC24876 | 3.5 | 7.61 | 6227
prom | DRSC26828 | 3.99 | 2.5 | 6697
prom | DRSC27557 | 5.24 | 11.8 | 7178
Hrs | DRSC00549 | 2.4 | 1.03 | 5619
Hrs | DRSC27741 | 4.37 | 10.3 | 6062
Spn77Ba | DRSC10693 | 6.46 | 17.3 | 1950
emb | DRSC03528 | 4.77 | 4.75 | 4084
AhcyL1 | DRSC08647 | 0.84 | 4.12 | 5605
AhcyL1 | DRSC25573 | 11.7 | 14.5 | 4996
CG5290 | DRSC10501 | 14 | 5.81 | 3346
CG5290 | DRSC30041 | 19.4 | 9.42 | 6235
CG5217 | DRSC15740 | 3.15 | 2.95 | 6676
Cpr76Bd | DRSC11063 | 11 | 7.81 | 6254
sick | DRSC02090 | 3.9 | 8.5 | 6334
sick | DRSC02301 | 6.42 | 1.5 | 5572
sick | DRSC02302 | 4.41 | 2.31 | 974
sick | DRSC02306 | 11.3 | 1.25 | 5285
MYPT-75D | DRSC10743 | 17.5 | 5.5 | 4338
CG3038 | DRSC18618 | 2.92 | 4.36 | 6861
CG13616 | DRSC14619 | 3.92 | 3.18 | 6408
eIF3g1 | DRSC18427 | 4.64 | 6.03 | 3168
eIF3g1 | DRSC29282 | 20.4 | 9.27 | 1952
synr | DRSC02369 | 8.97 | 0.18 | 6021
CG7953 | DRSC01902 | 10.9 | 25.9 | 6013
TMEM216 + CG11760 | DRSC14375 | 15.6 | 16.6 | 6536
GstD1 | DRSC16683 | 11.6 | 11.6 | 6302
GstD1 | DRSC27603 | 5.34 | 2.33 | 5595
CG40198 | DRSC21068 | 6.45 | 4.71 | 6291
TotC | DRSC13449 | 2.17 | 2.28 | 5957

Entries above whose target name begins with E or e (3):
gene knocked down | amplicon | infection score, replicate 1 | infection score, replicate 2 | cell count, replicate 1
emb | DRSC03528 | 4.77 | 4.75 | 4084
eIF3g1 | DRSC18427 | 4.64 | 6.03 | 3168
eIF3g1 | DRSC29282 | 20.4 | 9.27 | 1952
